From patent US20260216325A1, “NOVEL IMIDAZOPYRIMIDINE COMPOUND AND USES THEREOF” (The Children's Medical Center Corporation, priority 2023, published 2026)

Tested on: C57BL/6 adult mice
Assay type: in vivo
Settings: 100 nmoles/mouse IM with spike, single immunization, 28 days post-immunization

Cc1cnc2nc(-c3ccc(C)c(NC(=O)c4ccc(CN)cc4C(F)(F)F)c3)cn2c1 [Compound (1), 4-(Aminomethyl)-N-(2-methyl-5-(6-methylimidazo[1,2-a]pyrimidin-2-yl)phenyl)-2-(trifluoromethyl) benzamide]
drove enhancement: WT spike-specific IgG1 titers | WT spike-specific IgG2c titers | WT spike-specific IgG titers
